The text below walks through data of patent US20250283886A1.

“And” between values parts separate entries of the source, which are not always exact repeats. Equal values may be shown once. Read-outs that look alike come from different tables or passages of the source.

For experiment [1], the target named is peptide having an N-terminal phenylalanine residue.
Experiment [2] has the same target. This is another data set of the same source.
For experiment [3], the target named is peptide having an N-terminal tryptophan residue.
Experiment [4] concerns the target peptide having an N-terminal tyrosine residue.
For experiment [5], the target named is peptide having an N-terminal phenylalanine residue. The source holds these as a separate data set.
The target in experiment [6] is peptide having an N-terminal tryptophan residue. This is another data set of the same source.
For experiment [7], the target named is peptide having an N-terminal tyrosine residue. This is another data set of the same source.
Experiment [8] has as its target QP64: ….

For “ClpS2 from A. tumefaciens labeled at an exposed cysteine residue with ATTO 532”, the mean pulse duration (u) was 0.14 s in experiment [1]; 0.15 s and 0.09 s in experiment [5]; 0.06 s and 0.04 s in experiment [6]; 0.09 s and 0.06 s in experiment [7]. For the same substance, the mean inter-pulse duration (u) in experiment [2] came out at 3 s; in experiment [3] it was 3.94 s; in experiment [4], 3.73 s.

Regarding GID4, the median pulse duration (value at the dashed line) in experiment [8] came out at 0.17 s.
